Experimental data taken from patent US20250025383A1, “EMOLLIENT COMPOSITION IN EMULSION FORM” (PIERRE FABRE MEDICAMENT, priority 2018, published 2025).

Assay: Evaluation of the compatibility of the preservatives in view of other aspects (odour, aspect, potential irritant or allergenic)

Substance	Comments/other aspects (preservative alone at 0.25% in emulsion)	Comments/other aspects (preservative alone at 3% in emulsion)
Benzalkonium chloride	allergenic	–
macrogol lauryl ether [Thesit (macrogol lauryl ether)]	–	(NB: very fluid)
